Results of unrelated studies side by side (data: NIAID ChemDB).

All rows: whole-cell or culture tests; organism: HIV-1; read by: cytopathic effect / MTT; measure: EC50

Lines come from different laboratories, so protocols vary. Blank or dashed fields: not listed here. ECn is the concentration giving n% inhibition of infection, replication or growth.

structure | conditions | cell line | strain | mutations | value
Cc1cn([C@H]2C[C@H](N=[N+]=[N-])[C@@H](CO)O2)c(=O)[nH]c1=O |  |  | IIIB |  | 0.3 µM
Nc1ccn([C@@H]2CC[C@H](CO)O2)c(=O)n1 |  | MT-2 | IIIB |  | 0.35 µM
COc1ccccc1N1CCN(c2c(F)cc3c(=O)c(C(=O)O)cn(C4CC4)c3c2OC(F)F)CC1 |  | MT-4 | IIIB |  | 0.26 µM
CC(C)(C)NC(=O)[C@@H]1C[C@@H]2CCCC[C@@H]2CN1C[C@@H](O)[C@H](Cc1ccccc1)NC(=O)[C@H](CC(N)=O)NC(=O)c1ccc2ccccc2n1 |  | MT-4 | IIIB |  | 0.023 µM
Nc1ccn([C@H]2CC[C@@H](CO)O2)c(=O)n1 |  | MT-4 |  | RD 22-RTwt | 0.69 µM
Cc1cn([C@H]2C[C@H](N=[N+]=[N-])[C@@H](COP(=O)(OCc3ccc([N+](=O)[O-])cc3)Oc3ccccc3)O2)c(=O)[nH]c1=O |  | MT-4 | IIIB |  | 0.01 µM
O=C(O)P(=O)(O)O |  | MT-2 | LAI-VIRAL CLONE |  | 28 µM
Cc1cn([C@H]2C[C@H](N=[N+]=[N-])[C@@H](COP(=O)(Oc3ccccc3)C(O)c3ccc(Cl)cc3)O2)c(=O)[nH]c1=O |  | MT-4 | IIIB |  | 0.05 µM
Nc1ccn([C@H]2CC[C@@H](CO)O2)c(=O)n1 |  |  | IIIB |  | 1.7 µM
CCN(C)C(=O)Oc1nsnc1-c1c(Cl)cccc1Cl |  | MT-4 | IIIB |  | 0.037 µM
Cc1ccnc2c1NC(=O)c1cccnc1N2C1CC1 | 5 d | MT-4 | IIIB-R |  | >1000 µM
Fc1cccc(F)c1C1SCc2nc3ccccc3n21 |  | CEM | IIIB |  | 1.39 µM
Cc1c(O)cccc1C(=O)N[C@@H](CSc1ccccc1)[C@H](O)CN1C[C@H]2CCCC[C@H]2C[C@H]1C(=O)NC(C)(C)C |  | MT-4 | IIIB |  | 0.01 µg/mL
COC(=O)C1CSC(c2cccnc2)N1S(=O)(=O)c1cccc2c(N(C)C)cccc12 |  | MT-4 | IIIB |  | >1000 µM
Cc1cc(SC2=C(O)CC(CCc3ccc(O)cc3)(C3CCCC3)OC2=O)c(C(C)(C)C)cc1OCCO |  | CEM | IIIB |  | 1.2 µM
CC(C)(C)NC(=O)[C@@H]1C[C@@H]2CCCC[C@@H]2CN1C[C@@H](O)[C@H](Cc1ccccc1)NC(=O)[C@H](CC(N)=O)NC(=O)c1ccc2ccccc2n1 |  | MT-4 | NL4-3 |  | 0.009 µg/mL
Cc1cn([C@H]2C[C@H](N=[N+]=[N-])[C@@H](COP(=O)(O)C(O)c3cccnc3)O2)c(=O)[nH]c1=O |  | MT-4 | IIIB |  | 2.4 µM
Nc1nc(NC2CC2)c2ncn([C@H]3C=C[C@@H](CO)O3)c2n1 |  | PBMC | BRU PITT.(RT-L74V) | RT-L74V | 9.6 µM
COc1cc(C2SCCN2S(=O)(=O)c2cccc3c(N(C)C)cccc23)ccc1O |  | MT-4 | IIIB |  | 2.32 µM
Cc1cn([C@H]2C[C@H](N=[N+]=[N-])[C@@H](CO)O2)c(=O)[nH]c1=O |  | MT-2 | LAI |  | 0.9 µM
Cc1cn([C@H]2C[C@H](N=[N+]=[N-])[C@@H](CO)O2)c(=O)[nH]c1=O |  | MT-4 | NL4-3 |  | 0.0337 µM
Cc1cn([C@H]2C[C@H](N=[N+]=[N-])[C@@H](CO)O2)c(=O)[nH]c1=O |  | MT-4 | NL4-3 |  | 0.004 µM
COC(=O)N[C@H](C(=O)N[C@@H](Cc1ccccc1)[C@@H](O)CN(Cc1ccc(-c2ccccn2)cc1)NC(=O)[C@@H](NC(=O)OC)C(C)(C)C)C(C)(C)C |  | MT-4 | IIIB |  | 0.008 µM
CCOCn1c([Se]c2ccccc2)c(C)c(=O)[nH]c1=O |  | MT-2 | IIIB |  | 3 µM
O=C1NS(=O)(=O)c2cc(Cl)ccc2-n2cccc21 |  | MT-4 | IIIB |  | ≥200 µM
Cc1cn([C@H]2C[C@H](N=[N+]=[N-])[C@@H](COP(=O)(Oc3ccccc3)C(O)c3ccc([N+](=O)[O-])cc3)O2)c(=O)[nH]c1=O |  | MT-4 | IIIB |  | 0.05 µM
CC(=O)c1ccc(C)cc1NC(C(N)=O)c1c(Cl)cccc1Cl |  | MT-4 | IIIB |  | 0.011 µg/mL
Nc1nc(NC2CC2)c2ncn([C@H]3C=C[C@@H](CO)C3)c2n1 |  | MT-4 |  | RD 22-RTwt | 1.12 µM
Cc1ccc(C(O)P(=O)(OC[C@H]2O[C@@H](n3cc(C)c(=O)[nH]c3=O)C[C@@H]2N=[N+]=[N-])Oc2ccccc2)cc1 |  | MT-4 | IIIB |  | 0.05 µM
Cc1cn([C@H]2C[C@H](N=[N+]=[N-])[C@@H](CO)O2)c(=O)[nH]c1=O |  | MT-4 | IIIB |  | <0.001 µg/mL
CCOCn1c(Sc2ccccc2)c(CC)c(=O)[nH]c1=O |  | MT-2 | LAI |  | <0.04 µM
Cc1cc(SC2=C(O)CC(CCc3ccc(N)cc3)(C(C)C)OC2=O)c(C(C)(C)C)cc1CO |  | CEM | IIIB |  | 0.5 µM
Nc1ccn([C@H]2CC[C@@H](CO)O2)c(=O)n1 |  | MT-2 | IIIB |  | ~0.32 µg/mL
CCN1C(=O)c2cccn2-c2ccc(Cl)cc2S1(=O)=O |  | MT-4 | IIIB |  | 35 µM
Cc1cn([C@H]2C[C@H](N=[N+]=[N-])[C@@H](CO)O2)c(=O)[nH]c1=O |  | MT-4 | IIIB |  | 0.0024 µM
Cc1ccc(Sc2c(C(C)C)c(COC(N)=O)cn2Cc2ccncc2)cc1 |  | MT-4 | IIIB |  | 42 µM
CN(C)C(=O)Oc1nsnc1-c1ccc(Cl)c(Cl)c1 |  | MT-4 | IIIB |  | >315 µM
O=c1[nH]c(=O)n([C@H]2C[C@H](O)[C@@H](CO)O2)cc1C12B3B4B5B6B(B3B1B42)B1B5C61 |  | PBMC |  |  | 73.2 µM
Cc1cn([C@H]2C[C@H](N=[N+]=[N-])[C@@H](CO)O2)c(=O)[nH]c1=O | 5 d | MT-4 | IIIB |  | 0.022 µM
CNC(C)[C@H]1O[C@H](O[C@@H]2[C@@H](O)[C@H](O[C@@H]3OC[C@@](C)(O)[C@@H](NC)[C@@H]3O)[C@@H](NC(=O)[C@@H](N)CCCN=C(N)N)C[C@H]2NC(=O)[C@@H](N)CCCN=C(N)N)[C@H](NC(=O)[C@@H](N)CCCN=C(N)N)[C@@H](O)[C@@H]1O |  | MT-4 | NL4-3 | AMD3100-resistant | 60 µM
Cc1cc(SC2=C(O)C[C@](CCc3ccc(N)cc3)(C(C)C)OC2=O)c(C(C)(C)C)cc1CO |  | CEM | IIIB |  | 19.8 µM
CCCN(C)C(=O)Oc1nsnc1-c1c(Cl)cccc1Cl |  | MT-4 | IIIB |  | 0.013 µM
Nc1nc(=O)n([C@@H]2CC[C@H](CO)O2)cc1F |  | MT-2 | IIIB |  | 0.007 µM
CCCCN(CC)C(=O)Oc1nsnc1-c1c(Cl)cccc1Cl |  | MT-4 | IIIB-R (RT-Y181C) | RT-Y181C | >44 µM
Cc1cc(SC2=C(O)CC(CCc3ccc(O)cc3)(C(C)C)OC2=O)c(C(C)(C)C)cc1CO |  | CEM | IIIB |  | 0.57 µM
Nc1ccn([C@@H]2CC[C@H](CO)S2)c(=O)n1 |  | MT-2 | IIIB |  | 70 µM
O=C(O)c1cn(C2CC2)c2c(OC(F)F)c(N3CCN(c4ncccn4)CC3)c(F)cc2c1=O |  | MOLT-4 | IIIB |  | 0.39 µM
C/C(C#N)=C\c1cc(C)c(Nc2ccnc(Nc3ccc(C#N)cc3)n2)c(C)c1 |  | MT-4 |  | RT-Y188L | 0.00316 µM
Cc1ccnc2c1NC(=O)c1cccnc1N2C1CC1 |  | MT-4 | IIIB |  | 0.018 µg/mL
Cc1c(O)cccc1C(=O)N[C@@H](CSc1ccccc1)[C@H](O)CN1C[C@H]2CCCC[C@H]2C[C@H]1C(=O)NC(C)(C)C |  | MT-4 | IIIB |  | 0.054 µM
Cc1ccnc2c1NC(=O)c1cccnc1N2C1CC1 |  |  | IIIB |  | 0.2 µM
CCOC(=O)c1cn(Cc2ccncc2)c(Sc2cccc(C)c2)c1C(C)C |  | MT-4 | IIIB |  | 1.2 µM
CC(C)=CCN1C(=O)c2cccn2-c2ccc(Cl)cc2S1(=O)=O |  | MT-4 | IIIB |  | 0.97 µM
CCCCNC(=O)Oc1nsnc1-c1c(Cl)cccc1Cl |  | MT-4 | IIIB-R (RT-Y181C) | RT-Y181C | >139 µM
CC(C)=CCN1Cc2cccc3[nH]c(=S)n(c23)C[C@@H]1C |  | MT-2 | N119 nevirapine-resistant (RT Y181C) | RT-Y181C | 69.3 µM
CCCN(C)C(=O)Oc1nsnc1-c1c(F)ccc(N)c1Cl |  | MT-4 |  |  | 0.0088 µg/mL
Nc1ccn([C@@H]2CO[C@H](CO)S2)c(=O)n1 |  | MT-4 | RF |  | 28 µM
CC(C)c1nc(CN(C)C(=O)N[C@H](C(=O)N[C@@H](Cc2ccccc2)C[C@H](O)[C@H](Cc2ccccc2)NC(=O)OCc2cncs2)C(C)C)cs1 |  | MT-4 | IIIB |  | 0.026 µg/mL
Cc1cc(SC2=C(O)C[C@@](CCc3ccc(N)cc3)(C(C)C)OC2=O)c(C(C)(C)C)cc1CO |  | CEM | IIIB |  | 0.2 µM
Cc1ccccc1Sc1c(C(C)C)c(COC(N)=O)cn1Cc1ccncc1 |  | MT-4 | IIIB |  | 5.4 µM
CN=C1CN=C(c2ccc[nH]2)c2cc(Cl)ccc2N1 |  | MT-4 | IIIB |  | >2.7 µM
Cc1cn([C@H]2C=C[C@@H](COC(=O)NCCSC(=O)OC[C@@H]3C=C[C@H](n4cc(C)c(=O)[nH]c4=O)O3)O2)c(=O)[nH]c1=O |  | MT-4 | NNRTI-resistant (RT Y181C) | RT-Y181C | 7 µM
Cc1ccnc2c1NC(=O)c1cccnc1N2C1CC1 |  | MT-4 | A17 | RT-K103N Y181C | >100 µM
C=CCN1C(=O)c2cccn2-c2ccc(Cl)cc2S1(=O)=O |  | MT-4 | IIIB |  | 22 µM
O=S(=O)(O)OC1C(OS(=O)(=O)O)C(OS(=O)(=O)O)C(OS(=O)(=O)O)C(OS(=O)(=O)O)C1OS(=O)(=O)O |  | MT-4 | NL4-3 | GP120-K320Q | >250 µg/mL
Nc1nc(NC2CC2)c2ncn([C@H]3C=C[C@@H](CO)C3)c2n1 |  | MT-2 | IIIB |  | 2.4 µM
CCOC(=O)c1cn(Cc2ccncc2)c(Sc2cccc(Cl)c2)c1C(C)C |  | MT-4 | IIIB |  | 2.1 µM
Cc1cn([C@@H]2C[C@H](CO)[C@@H](O)C2)c(=O)[nH]c1=O |  | MT-4 |  |  | >0.07 µg/mL
Cc1cn([C@H]2C[C@H](N=[N+]=[N-])[C@@H](CO)O2)c(=O)[nH]c1=O |  | MT-4 | IIIB |  | 0.01 µM
CCn1cc(C(=O)O)c(=O)c2cc(F)c(N3CCN(c4ccccc4OC)CC3)c(OC(F)F)c21 |  | MT-4 | IIIB |  | 0.29 µM
O=c1[nH]cnc2c1ncn2[C@H]1CC[C@@H](CO)O1 |  | MT-4 | EFV-resistant (RT K103R V179D P225H) | RT-K103R V179D P225H | 1.2 µM
COc1c(O)c(I)c2c(c1OC)-c1c(c(I)c(O)c(OC)c1OC)C[C@H](C)[C@H](C)C2 |  | MT-4 | 1506-RS (RT-Y188L) | RT-Y188L | >20 µM
Fc1cccc(F)c1C1OCc2nc3ccccc3n21 |  | CEM | TIBO R82150-resistant (RT K103N) | RT-K103N | ≥13.85 µM
Cc1ccnc2c1NC(=O)c1cccnc1N2C1CC1 |  | MT-4 |  | RT-Y188L | >10 µM

The last 9 rows once more:

structure,conditions,cell line,strain,mutations,value
Nc1nc(NC2CC2)c2ncn([C@H]3C=C[C@@H](CO)C3)c2n1,,MT-2,IIIB,,2.4 µM
CCOC(=O)c1cn(Cc2ccncc2)c(Sc2cccc(Cl)c2)c1C(C)C,,MT-4,IIIB,,2.1 µM
Cc1cn([C@@H]2C[C@H](CO)[C@@H](O)C2)c(=O)[nH]c1=O,,MT-4,,,>0.07 µg/mL
Cc1cn([C@H]2C[C@H](N=[N+]=[N-])[C@@H](CO)O2)c(=O)[nH]c1=O,,MT-4,IIIB,,0.01 µM
CCn1cc(C(=O)O)c(=O)c2cc(F)c(N3CCN(c4ccccc4OC)CC3)c(OC(F)F)c21,,MT-4,IIIB,,0.29 µM
O=c1[nH]cnc2c1ncn2[C@H]1CC[C@@H](CO)O1,,MT-4,EFV-resistant (RT K103R V179D P225H),RT-K103R V179D P225H,1.2 µM
COc1c(O)c(I)c2c(c1OC)-c1c(c(I)c(O)c(OC)c1OC)C[C@H](C)[C@H](C)C2,,MT-4,1506-RS (RT-Y188L),RT-Y188L,>20 µM
Fc1cccc(F)c1C1OCc2nc3ccccc3n21,,CEM,TIBO R82150-resistant (RT K103N),RT-K103N,≥13.85 µM
Cc1ccnc2c1NC(=O)c1cccnc1N2C1CC1,,MT-4,,RT-Y188L,>10 µM